Target: Human immunodeficiency virus type 1 integrase (Human immunodeficiency virus 1) (UniProt Q7ZJM1)
Assay: Selectivity ratio of IC50 for HIV-1 integrase-mediated 3'-processing activity to IC50 for HIV-1 integrase-mediated strand transfer activity

Row | Structure (SMILES) | Ratio IC50
1 | O=C(NCc1ccc(F)c(F)c1)c1cc2cccc(O)c2n(O)c1=O | 30
2 | O=C(NCc1ccc(F)c(Cl)c1)c1cc2cccc(O)c2n(O)c1=O | 30

— ChEMBL document CHEMBL3124837, “Bicyclic 1-hydroxy-2-oxo-1,2-dihydropyridine-3-carboxamide-containing HIV-1 integrase inhibitors having high antiviral potency against cells harboring raltegravir-resistant integrase mutants” (J Med Chem, 2014)
